# Test results taken from PubChem BioAssay AID1224854 (National Center for Advancing Translational Sciences (NCATS), 2016).
# This is a selection; strong and weak results do not stand in their true shares. Records with an inconclusive call do not appear. Calls of active or inactive are those of the source. Calls come from the whole dose curve; as a rule, active = well fitted activation curve with a large enough effect; inconclusive = small, poorly fitted or top-dose-only effect; inactive = flat fitted curve, though single readings scatter.
# Assay: Cell viability assay for measurement of the protective activity of small molecules against cell death caused by Zika virus infection in human astrocytoma cells
# Details: SNB-19 Zika virus cytoprotection, ATP luminescence, 72 h; at 46.1 µM (top of the series)
# Excerpt: National Center for Advancing Translational Sciences [NCATS] Johns Hopkins University School of Medicine Florida State University Assay Overview: Zika virus infection causes cell death in certain cell types including human neural progenitor cells (hNPCs), astrocytes, and astrocytoma cell line (SNB-19). This cell viability assay measures the ATP content (level) in human astrocytoma cells (SNB-19) using a luminescence readout that is proportional to viable cell numbers. Decrease in the luminescence signal after Zika virus infection indicates the cell death caused by Zika virus. Small molecule inhibitors […] the decreased luminescence signal after Zika virus infection, indicating the protective effect of that small molecule on the cell death caused by Zika virus infection. This observed protective effect of small molecules against Zika virus induced cell death may result from inhibition of virus replication or cellular response to the virus infection.
# Assay Protocol Summary: The medium for SNB-19 cells is composed of RPMI 1640 (ATCC, Cat.# 30-2001), 10% fetal bovine serum (FBS) (GE healthcare Life Sciences, Cat.# SH30071.03), and 1% Pen/Strep (Gibco, Cat.# 15140-122). […] The luminescence intensity of the assay plates was measured using a ViewLux plate reader (PerkinElmer). […] The percentage inhibitions of the decreased cell viability by small molecule inhibitors were then calculated.
smiles,measurement,value
C/C1=C2N=C(/C=C3N=C(/C(C)=C4\[N-][C@@](C)([C@@H]5N=C1[C@](C)(CCC(=O)NC[C@@H](C)OP(=O)([O-])O[C@H]1[C@@H](O)[C@@H](n6cnc7cc(C)c(C)cc76)O[C@@H]1CO)[C@H]5CC(N)=O)[C@@](C)(CC(N)=O)[C@@H]4CCC(N)=O)[C@@](C)(CC(N)=O)[C@@H]\3CCC(N)=O)C(C)(C)[C@@H]/2CCC(N)=O.[C-]#N.[Co+3],protection from virus-induced cell death,inactive: -5.63%
